Assay results: patent US12018066, “Compositions for targeting SARS-CoV-2 spike protein receptor binding domain” (TRIAD NATIONAL SECURITY, dated 2024)
Where a chain is given by its changes, count along the chain named. Where two headings read alike, the source gives them in different places.

B1: G07 IgG1 (antibody, V domains shown)
VH: QVQLVQSGAEVKKPGESLKISCKGSGYSFTSYWIGWVRQMPGKGLEWMGIIYPGDSDIRYSPSFQGQVTISADKSFSSAYLQWSSLKASDTAMYYCARLGATGAFDIWGQGTTVTVSS
VL: QSVLIQPPSASGTPGQRVTISCSGSNSNFGSNSVSWYQQRPGTAPKLLIEGNNQRPSGVPERFSGSKSGTSASLAISGLQSEDEAEYSCASWDDSLNAFVFGPGTKLTVL
B2: B04 IgG1 (antibody, V domains shown)
VH: QVQLVESGAEVKKPGASVKVSCKASGYTFTRYYMHWVRQAPGQGLEWMGIINPSGGTTSYAQKFQGRVTMTRDTSTSTVYMELSSLRSEDTAVYYCARSFGELTSFDYWGQGTLVTVSS
VL: SYVLTQPPSVSVAPGKTARITCGGNNIGIRSVHWYQQKPGQAPVLVIYYDSDRPSGIPERFSGSKSGNTATLTISRVEAGDEADYYCQVWDSSSDHPVFGGGTKLTVL
B3: F07 IgG1 (antibody, V domains shown)
VH: QVQLVQSGAEVKKPGSSVRVSCKVSGYTFTGYYMHWVRQAPGQGLEWMGIINPSGGSTSYAQKFQGRVTMTRDTSTSTVYMELSSLRSEDTAVYYCARVRVGASDAFDIWGQGTMVTVSS
VL: B2 VL with K16Q, I29S, R30K, I47V, Y49D, K65N, T73I, D95V, P97Y, G101T
B4: R04 IgG1 (antibody, V domains shown)
VH: QVQLQQSGPGLVKSSQTLSLTCAISGDSVSSNGAAWHWIRQSPSRGLEWLGRTYYRSGWYNDYAVSVKSRITINQDTSKNQFSLQLNSVTPEDTAVYFCAREGGGGRMDVWSQGTTVTVSS
VL: EIVMTQSPSSLSASVGDRVTITCQASQDISNYLNWCQQKPGKAPKLLIYDASNLETGVPSRFSGSGSGTGFTFTISSLQPEDFATYYCQQSYSTPYTFGQGTKVEIK
B5: E01 IgG1 (antibody, V domains shown)
VH: QVQLQQWGAGLLKPSETLSLKCAVYGGSFSGYYWGWIRQSTGKGLEWIGEINRSGSTNYNPSLKSRVTISVDTSKNQFSLKLSSVTAADTAVYYCARGGARYYYGSGSYRSTPRPYYFDYWGQGTLVTVSS
VL: SYELTQPPSVSVAPGETARITCGGDNIGRRHVHWYQQKPGQAPVLVIYDDSDRPSGIPDRFSGSNSGNTATLTIGRVEAGDEADYYCQVWGSSNDPHVFGTGTKLTVL
notes: also called E1
B6: S01 IgG1 (antibody, V domains shown)
VH: QVQLVESGGGLVKPGGSLRLSCAASGFTVGSNYMSWVRQAPGKGLEWVSVIYSGGSTYYADSVKGRFTISRDNSKNTLYLQMNSLRAEDTAVYYCARGSSGAWYFDLWGRGTLVTVSS
VL: EIVMTQSPSSLSASVGDSVTITCQASQDISNYLNWYQQKPGKAPKLLIYDASNLETGVPSRFSGGGSGTDFTLTITSLQPEDIATYYCQQYDNFPPTFGPGTKVDIK
notes: also called 501
B7: S01 scFv (scFv)
scFv: EIVMTQSPSSLSASVGDSVTITCQASQDISNYLNWYQQKPGKAPKLLIYDASNLETGVPSRFSGGGSGTDFTLTITSLQPEDIATYYCQQYDNFPPTFGPGTKVDIKSGGSTITSYNVYYTKLSSSDTQVQLVESGGGLVKPGGSLRLSCAASGFTVGSNYMSWVRQAPGKGLEWVSVIYSGGSTYYADSVKGRFTISRDNSKNTLYLQMNSLRAEDTAVYYCARGSSGAWYFDLWGRGTLVTVSS
notes: also called 501

Legend:
[1] = target: T1, SARS-CoV spike protein receptor binding domain (RBD1) (SARS-CoV, UniProt P59594 306-527)
RBD2-sfGFP-6His = RBD2-sfGFP-6His (SARS-CoV-2, UniProt P0DTC2); assay: FLISA, immobilized IgG, 100 nM sfGFP chimera, GFP fluorescence
[2] = target: T2, SARS-CoV-2 spike subunit 1 (S1), avitagged and biotinylated (SARS-CoV-2, UniProt P0DTC2 16-685); assay: FLISA, immobilized IgG, 100 nM biotinylated antigen, streptavidin-Alexa 633
T2 construct: domain: S1

[3] = target: SARS-CoV-2 spike protein variant D614G (SARS-CoV-2, UniProt P0DTC2 16-1213)
[4] = target: T1, SARS-CoV spike protein receptor binding …; remark: listed apart in the source

Binder | binding result [1] | also measured
B1 | no binding (tested: 100 nM) | 
B2 | no binding (tested: 100 nM) | 
B3 | no binding (tested: 100 nM) | 
B4 |  | binding result (RBD2-sfGFP-6His): no binding (tested: 100 nM); binding result [2]: no binding (tested: 100 nM)
B5 | no binding (tested: 100 nM) | fold reduction of detection sensitivity, wild-type vs D614G spike [3]: ≤ 2 fold
B6 | no binding (tested: 100 nM) | fold reduction of detection sensitivity, wild-type vs D614G spike [3]: ≥ 31 fold
B7 |  | binding result [4]: no binding (tested: 20 nM)
